This data set deals with elongation factor-2 (EF-2).

On to “null construct DT382(G53E) (no sequence given)”, for which the Relative Activity (IVTT) (ratio (IC50 WT / IC50 variant)) came out at 0.43 and the Relative IVTT score (ratio (IC50 WT / IC50 mutant)) was 0.43. Regarding “wild type DT382 (truncated diphtheria toxin, […] of DT387) (no sequence given)”, the Relative Activity (IVTT) (ratio (IC50 WT / IC50 variant)) came to 1.

For the origin of these results see patent US20090041797.
